“And” between values parts separate entries of the source, which are not always exact repeats. Identical values can stand only once.
Biological target: B. anthracis (anthrax) protective antigen (B. anthracis) (UniProt P13423)

## MS2 single-chain dimer coat protein VLPs displaying no scFv (from pDSP62) (from UniProt P03612 2-130)
  OD: 0.267 OD and 0.232 OD

— patent publication US20130017210A1
